Compound potency records, mixed from different reports. Data source: NIAID ChemDB in PubChem.

Common to all: tests in culture; agent: HIV-1; endpoint: inhibition

Neighbouring rows are from separate reports. Blank or dashed fields: not listed here. Inhibition is in % at the dose shown (toxicity tests: loss of growth or viability).

structure,strain,changes,cells,method,setting,tested at,value
Nc1ncnc2c1ncn2[C@@H]1O[C@H](COP(=O)(O)O[C@@H]2[C@H](O)[C@@H](COP(=O)(O)O[C@@H]3[C@H](O)[C@@H](COP(=O)(O)O[C@@H]4[C@H](O)[C@@H](CO)O[C@H]4n4cnc5c(N)ncnc54)O[C@H]3n3cnc4c(N)ncnc43)O[C@H]2n2cnc3c(N)ncnc32)[C@@H](O)[C@H]1O,IIIB,-,PBL,syncytia,-,300 µM,2.3%
Cc1c(C)c2c(c(C)c1OC(=O)OC1CC(COP(=O)(O)OC3CC(COP(=O)(O)OC4CC(CO)OC4n4cnc5c(N)ncnc54)OC3n3cnc4c(N)ncnc43)OC1n1cnc3c(N)ncnc31)CCC(C)(CCCC(C)CCCC(C)CCCC(C)C)O2,IIIB,-,SupT1 + Sup-T1,syncytia,-,300 µM,98.3%
CCCCCCC(=O)CCCCCCC(=O)O,-,-,CEM,cytopathic effect,-,3 µg/mL,5%
C[C@H]1[C@H](O)[C@@H](C)/C=C/C=C/C=C/C=C/C=C/C=C/C=C/[C@H](O[C@@H]2O[C@H](C)[C@@H](O)[C@H](N)[C@@H]2O)C[C@@H]2O[C@](O)(C[C@@H](O)C[C@@H](O)CC[C@H](O)[C@@H](O)C[C@@H](O)CC(=O)O[C@H]1C)C[C@H](O)[C@H]2C(=O)O,MDR807 Primary isolate X4 (SI),-,PBMC,p24 / RT activity,-,1.9 µM,90%
NC(=O)NO,-,-,U-937,p24,-,200 µM,68.75%
c1ccc2c(-c3ccc(-c4ccc(-c5ccc(-c6cccc7ccccc67)s5)c5ccccc45)s3)cccc2c1,IIIB,-,C8166,p24 / ELISA / antigen,-,8 µM,68.62%
NCCS,BaL,-,Macrophage,cytopathic effect / MTT,-,100 µM,100%
COc1cccc(C2=CC(c3cnc(C(C)C)cn3)SC(N)=N2)c1,NL4-3,-,TZM-bl,p24 / ELISA / antigen,-,10 µg/mL,24%
Nc1ncnc2c1ncn2COCCOP(=O)([O-])O[C@@H]1C[C@@H](COP(=O)([O-])O[C@@H]2C[C@@H](COP(=O)([O-])O[C@@H]3C[C@@H](CO)O[C@H]3n3cnc4c(N)[n+](Cc5ccccc5)cnc43)O[C@H]2n2cnc3c(N)ncnc32)O[C@H]1n1cnc2c(N)ncnc21,-,-,SupT1 + Sup-T1,syncytia,-,1 µM,59%
O=C(CN1c2c(-c3ccccc3)n[nH]c2-c2ccccc2S1(=O)=O)N/N=C/c1ccccc1[N+](=O)[O-],-,-,PBL,-,-,47.3 µM,90%
CC(C)c1cnc(C2C=C(c3ccc(Cl)cc3)N=C(N)S2)cn1,NL4-3,-,TZM-bl,p24 / ELISA / antigen,-,10 µg/mL,69%
C=CCN(CC=C)C(=S)N=Nc1c(O)n(CC=C)c2ccccc12,-,-,H9/HIV-1 + H9,plaque count,chronic infection,6 µg/mL,99%
N#Cc1cc(Cl)cc(Oc2c(Cl)ccc3c2nnn3Cc2[nH]nc3nc(N)ccc23)c1,-,K103N,MT-4,-,-,0.0058 µM,>95%
COc1ccc(C2=CC(c3cnc(C(C)C)cn3)SC(N)=N2)cc1,NL4-3,-,TZM-bl,p24 / ELISA / antigen,-,10 µg/mL,29%
COC(=O)c1c(C(=O)OC)c(Cc2ccccc2)n(C)c1C,IIIB,-,PBL,p24 / ELISA,-,10 µM,2%
OCCCCCCOc1ccc(-c2ccccc2)cc1,GB8,-,JM,syncytia,-,15 µg/mL,100%
CCOC(=O)C1=C(C)N(c2ccc(C(=O)O)cc2)C(C)=C(C(=O)OCC)C1c1cccs1,NL4-3,-,HEK293T + MT-2,p24 / ELISA,-,100 µM,50.12%
O=S(=O)(O)c1c2ccccc2c(-c2c3nc(c(-c4c5ccccc5c(S(=O)(=O)O)c5ccccc45)c4ccc([nH]4)c(-c4c5ccccc5c(S(=O)(=O)O)c5ccccc45)c4nc(c(-c5c6ccccc6c(S(=O)(=O)O)c6ccccc56)c5ccc2[nH]5)C=C4)C=C3)c2ccccc12,IIIB,-,MAGI,β-galactosidase,-,5 µg/mL,70%
[N-]=[N+]=NCCCCCCCCCCCC(=O)O,RF,-,CEM,cytopathic effect,-,4 µM,82%
Cc1c2ccnc(Cl)c2cc2c3cn(C)ccc-3nc12,-,-,PBMC,p24 / ELISA,-,0.1 µM,0%
CCCCCCCCCCCCCCCCOCC(COC(=O)CCC(=O)OCC1CC(OP(=O)(O)OCC2CC(OP(=O)(O)OCC3CC(O)C(n4cnc5c(N)ncnc54)O3)C(n3cnc4c(N)ncnc43)O2)C(n2cnc3c(N)ncnc32)O1)OCCCCCCCCCCCCCCCC,IIIB,-,SupT1 + Sup-T1,syncytia,-,300 µM,79.2%
O[C@H]1CCN(Cc2ccccc2)C[C@@H]1O,BRU,-,CEM + CEM-SS,cytopathic effect,-,100 µg/mL,6.8%
COC(=O)C1=C(C)N(c2ccc(C(=O)O)cc2)C(C)=C(C(=O)OC)C1c1ccc([N+](=O)[O-])o1,NL4-3,-,HEK293T + MT-2,p24 / ELISA,-,100 µM,30%
Cc1ccc(-c2ccc3c(c2)C=C(C(=O)Nc2ccc(C[N+](C)(C)C4CCOCC4)cc2)CCC3)cc1,TB3 CLADE C,-,PBMC,p24,-,1 µM,100%
CC12CCC(C(=O)n3c1nc1ccccc13)C(C)(C)O2,RF,-,CEM + CEM-SS,-,-,200 µM,16.3%
N#Cc1cc(Cl)cc(Oc2c(Cl)ccc3c2cnn3Cc2[nH]nc3ncccc23)c1,-,-,MT-4,-,50% human serum,0.064 µM,>95%
Clc1cc2nc(C3CCCCO3)[nH]c2cc1Cl,RF,-,CEM + CEM-SS,-,-,2 µM,5.2%
CO[C@H]1C[C@@H]2CC[C@@H](C)[C@@](O)(O2)C(=O)C(=O)N2CCCC[C@H]2C(=O)O[C@H]([C@H](C)C[C@@H]2CC[C@@H](O)[C@H](OC)C2)CC(=O)[C@H](C)/C=C(\C)[C@@H](O)[C@@H](OC)C(=O)[C@H](C)C[C@H](C)/C=C/C=C/C=C/1C,ADA R5,-,Macrophage + Monocytes/macrophages,p24,-,0.00001 µM,64%
COC(=O)CCCCCCCCCCC(=O)O,-,-,CEM,cytopathic effect,-,10 µg/mL,34%
O=C(Nc1ccc(Cl)cc1)N(CCCN1CCC(Cc2ccccc2)CC1)c1ccccc1,BaL,-,MAGI + MT-4,β-galactosidase,-,0.16 µM,98%
CN1[C@H](CC(=O)O)C[C@@H](O)[C@@H]1CO,-,-,293T,-,pseudotyped,10 µM,22.4%
C/C(=C(/CCO)SS/C(CCO)=C(\C)N(C=O)Cc1cnc(C)nc1N)N(C=O)Cc1cnc(C)nc1N,LAV-1,-,CEM/LAV-1 + CEM,-,-,250 µM,75%
N#Cc1cc(Cl)cc(Oc2c(Cl)ccc3c2ncn3Cc2[nH]nc3ncccc23)c1,-,-,MT-4,-,-,0.023 µM,>95%
CCCCC(=O)NCCCCCCCC(=O)O,-,-,CEM,cytopathic effect,-,1 µg/mL,1%
CC(C)c1cnc(C2C=C(c3ccc([N+](=O)[O-])cc3)N=C(N)S2)cn1,NL4-3,-,TZM-bl,p24 / ELISA / antigen,-,10 µg/mL,94%
Nc1ncnc2c1ncn2COCCOP(=O)([O-])O[C@@H]1[C@H](O)[C@@H](COP(=O)([O-])O[C@@H]2[C@H](O)[C@@H](COP(=O)([O-])O[C@@H]3[C@H](O)[C@@H](CO)O[C@H]3n3cnc4c(NCc5ccccc5)ncnc43)O[C@H]2n2cnc3c(N)ncnc32)O[C@H]1n1cnc2c(N)ncnc21,-,-,SupT1 + Sup-T1,syncytia,-,100 µM,63%
COC(=O)c1c(C)[nH]c(Cc2ccccc2)c1C(=O)OC,IIIB,-,PBL,p24 / ELISA,-,10 µM,0%
CC(C)c1cnc(C2C=C(c3cccc(O)c3)N=C(N)S2)cn1,NL4-3,-,TZM-bl,p24 / ELISA / antigen,-,10 µg/mL,51%
COc1ccc(OCC2OC2COC(=O)c2ccc(O)c(OC)c2)cc1,-,-,CEM-GFP,GFP / fluorescence,-,75 µM,6%
c1ccc2[nH]c(C3CCCCO3)nc2c1,RF,-,CEM + CEM-SS,-,-,6.33 µM,5.5%
CCCCCCCC(=O)NCCCCC(=O)O,-,-,CEM,cytopathic effect,-,10 µg/mL,24%
CCn1c(C)c(C(=O)N(C)C)c(C(=O)N(C)C)c1Cc1ccccc1,IIIB,-,PBL,p24 / ELISA,-,10 µM,5%
O=C(O)CCCCCCCCCCCc1ncc[nH]1,-,-,CEM,cytopathic effect,-,10 µg/mL,5%
CC(C)[C@H](NC(=O)[C@H](Cc1ccccc1)C[C@H](O)[C@H](Cc1ccccc1)NC(=O)OC(C)(C)C)C(=O)N[C@@H](Cc1ccccc1)C(=O)N1CCOCC1,AMS316-23,-,PBL,RT activity,-,0.5 µM,92%
CCOC(=O)c1cc(-c2ccc(OC)cc2)n(-c2ccccc2)c1C,IIIB,-,PBL,p24 / ELISA,-,10 µM,6%
COC(=O)C1=C(C)N(c2ccc(C(=O)O)cc2)C(C)=C(C(=O)OC)C1/C=C/c1ccccc1,NL4-3,-,HEK293T + MT-2,p24 / ELISA,-,100 µM,30.57%
CCn1c(C)c(C(=O)OC)c(C(=O)OC)c1CC(C)C,IIIB,-,PBL,p24 / ELISA,-,10 µM,0%
O=C1CCC(N2C(=O)c3ccccc3C2=O)C(=O)N1,JR-FL,-,Macrophage,RT activity,-,50 µg/mL,36%
C=C1CC[C@@H](OC(=O)CCC(=O)OCC2CC(OP(=O)(O)OCC3CC(OP(=O)(O)OCC4CC(O)C(n5cnc6c(N)ncnc65)O4)C(n4cnc5c(N)ncnc54)O3)C(n3cnc4c(N)ncnc43)O2)C/C1=C/C=C1\CCC[C@]2(C)[C@@H]([C@@H](C)/C=C/[C@H](C)C(C)C)CC[C@@H]12,IIIB,-,SupT1 + Sup-T1,syncytia,-,300 µM,97.5%
COC1=C(Br)CC2(OC=C1Br)ON=C(C(=O)NCCCOc1c(Br)cc(CCN)cc1Br)[C@@H]2O,LAV,-,U1(HIV-1 (LAV)) + U1,p24,-,20 µM,45%

Repeating the final 5 entries:

structure,strain,changes,cells,method,setting,tested at,value
COC(=O)C1=C(C)N(c2ccc(C(=O)O)cc2)C(C)=C(C(=O)OC)C1/C=C/c1ccccc1,NL4-3,-,HEK293T + MT-2,p24 / ELISA,-,100 µM,30.57%
CCn1c(C)c(C(=O)OC)c(C(=O)OC)c1CC(C)C,IIIB,-,PBL,p24 / ELISA,-,10 µM,0%
O=C1CCC(N2C(=O)c3ccccc3C2=O)C(=O)N1,JR-FL,-,Macrophage,RT activity,-,50 µg/mL,36%
C=C1CC[C@@H](OC(=O)CCC(=O)OCC2CC(OP(=O)(O)OCC3CC(OP(=O)(O)OCC4CC(O)C(n5cnc6c(N)ncnc65)O4)C(n4cnc5c(N)ncnc54)O3)C(n3cnc4c(N)ncnc43)O2)C/C1=C/C=C1\CCC[C@]2(C)[C@@H]([C@@H](C)/C=C/[C@H](C)C(C)C)CC[C@@H]12,IIIB,-,SupT1 + Sup-T1,syncytia,-,300 µM,97.5%
COC1=C(Br)CC2(OC=C1Br)ON=C(C(=O)NCCCOc1c(Br)cc(CCN)cc1Br)[C@@H]2O,LAV,-,U1(HIV-1 (LAV)) + U1,p24,-,20 µM,45%